Experimental data: patent US20240269228A1 (priority 2021, published 2024)

By UniProt entry, the sequences of proteins in these tests, tags left out. Residues count along the entry.
UniProt Q9GZZ6, 25-450 limits assumed: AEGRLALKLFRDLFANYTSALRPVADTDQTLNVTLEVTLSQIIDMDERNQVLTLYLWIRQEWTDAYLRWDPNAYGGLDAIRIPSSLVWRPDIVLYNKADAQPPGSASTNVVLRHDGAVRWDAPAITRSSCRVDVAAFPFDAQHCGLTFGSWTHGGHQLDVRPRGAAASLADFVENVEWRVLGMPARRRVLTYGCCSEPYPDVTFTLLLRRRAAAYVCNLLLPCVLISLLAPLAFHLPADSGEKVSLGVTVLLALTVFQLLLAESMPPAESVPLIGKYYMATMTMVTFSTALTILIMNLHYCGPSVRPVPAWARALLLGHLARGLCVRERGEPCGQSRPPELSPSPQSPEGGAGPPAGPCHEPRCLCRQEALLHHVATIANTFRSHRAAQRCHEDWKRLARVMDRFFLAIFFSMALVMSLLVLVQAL
UniProt Q9UGM1, 26-479 limits assumed: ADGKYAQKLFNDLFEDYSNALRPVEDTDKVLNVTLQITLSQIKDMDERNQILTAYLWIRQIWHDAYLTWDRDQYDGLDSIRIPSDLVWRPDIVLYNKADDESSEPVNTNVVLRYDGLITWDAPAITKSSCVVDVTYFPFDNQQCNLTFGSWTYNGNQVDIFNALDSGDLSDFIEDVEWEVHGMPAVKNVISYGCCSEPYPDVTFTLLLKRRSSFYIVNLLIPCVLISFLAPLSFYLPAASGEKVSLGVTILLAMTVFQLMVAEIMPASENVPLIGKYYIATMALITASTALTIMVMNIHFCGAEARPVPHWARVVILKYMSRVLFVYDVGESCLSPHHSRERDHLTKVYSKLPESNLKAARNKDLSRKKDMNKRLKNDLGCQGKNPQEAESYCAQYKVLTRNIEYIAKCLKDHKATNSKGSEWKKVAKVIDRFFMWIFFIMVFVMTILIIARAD
UniProt P36544, 23-502 limits assumed: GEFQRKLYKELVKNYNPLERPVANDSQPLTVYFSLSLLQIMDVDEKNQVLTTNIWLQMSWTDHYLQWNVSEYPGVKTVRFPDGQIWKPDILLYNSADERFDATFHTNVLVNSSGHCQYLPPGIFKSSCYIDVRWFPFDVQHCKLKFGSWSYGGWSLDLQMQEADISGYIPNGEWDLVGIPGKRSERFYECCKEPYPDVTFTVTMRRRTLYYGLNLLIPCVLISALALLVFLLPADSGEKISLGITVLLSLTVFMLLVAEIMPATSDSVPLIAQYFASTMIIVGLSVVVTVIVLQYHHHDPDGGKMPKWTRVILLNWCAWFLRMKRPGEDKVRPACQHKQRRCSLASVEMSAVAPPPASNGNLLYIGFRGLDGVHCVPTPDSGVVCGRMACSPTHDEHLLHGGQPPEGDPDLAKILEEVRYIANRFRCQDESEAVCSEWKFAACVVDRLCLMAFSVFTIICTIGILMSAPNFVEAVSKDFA
UniProt Q9JLB5, 25-447 limits assumed: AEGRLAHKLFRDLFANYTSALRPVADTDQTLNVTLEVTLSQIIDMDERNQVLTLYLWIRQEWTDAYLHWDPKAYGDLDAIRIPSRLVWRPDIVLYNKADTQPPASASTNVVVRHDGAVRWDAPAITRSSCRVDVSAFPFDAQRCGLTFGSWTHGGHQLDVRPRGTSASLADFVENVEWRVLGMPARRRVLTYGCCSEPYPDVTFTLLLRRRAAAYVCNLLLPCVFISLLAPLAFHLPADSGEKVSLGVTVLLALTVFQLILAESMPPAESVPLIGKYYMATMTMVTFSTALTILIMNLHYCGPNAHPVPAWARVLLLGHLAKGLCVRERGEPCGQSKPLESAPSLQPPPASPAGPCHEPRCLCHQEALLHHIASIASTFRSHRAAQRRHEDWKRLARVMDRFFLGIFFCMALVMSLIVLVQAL
UniProt Q05941, 23-502 limits assumed: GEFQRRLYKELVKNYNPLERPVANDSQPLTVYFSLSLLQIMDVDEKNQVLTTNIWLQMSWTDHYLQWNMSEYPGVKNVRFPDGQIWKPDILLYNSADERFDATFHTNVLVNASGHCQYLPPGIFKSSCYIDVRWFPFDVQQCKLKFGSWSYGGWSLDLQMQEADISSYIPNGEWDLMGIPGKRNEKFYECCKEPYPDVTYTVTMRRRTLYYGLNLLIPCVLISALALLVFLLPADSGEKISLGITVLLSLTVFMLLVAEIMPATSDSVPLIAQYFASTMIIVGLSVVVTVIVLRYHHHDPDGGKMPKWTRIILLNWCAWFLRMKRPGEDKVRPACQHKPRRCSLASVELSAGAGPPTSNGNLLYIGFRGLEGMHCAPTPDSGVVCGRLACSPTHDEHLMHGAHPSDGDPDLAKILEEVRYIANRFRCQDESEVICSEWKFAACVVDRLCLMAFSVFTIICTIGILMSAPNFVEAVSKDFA
UniProt Q12809, whole entry: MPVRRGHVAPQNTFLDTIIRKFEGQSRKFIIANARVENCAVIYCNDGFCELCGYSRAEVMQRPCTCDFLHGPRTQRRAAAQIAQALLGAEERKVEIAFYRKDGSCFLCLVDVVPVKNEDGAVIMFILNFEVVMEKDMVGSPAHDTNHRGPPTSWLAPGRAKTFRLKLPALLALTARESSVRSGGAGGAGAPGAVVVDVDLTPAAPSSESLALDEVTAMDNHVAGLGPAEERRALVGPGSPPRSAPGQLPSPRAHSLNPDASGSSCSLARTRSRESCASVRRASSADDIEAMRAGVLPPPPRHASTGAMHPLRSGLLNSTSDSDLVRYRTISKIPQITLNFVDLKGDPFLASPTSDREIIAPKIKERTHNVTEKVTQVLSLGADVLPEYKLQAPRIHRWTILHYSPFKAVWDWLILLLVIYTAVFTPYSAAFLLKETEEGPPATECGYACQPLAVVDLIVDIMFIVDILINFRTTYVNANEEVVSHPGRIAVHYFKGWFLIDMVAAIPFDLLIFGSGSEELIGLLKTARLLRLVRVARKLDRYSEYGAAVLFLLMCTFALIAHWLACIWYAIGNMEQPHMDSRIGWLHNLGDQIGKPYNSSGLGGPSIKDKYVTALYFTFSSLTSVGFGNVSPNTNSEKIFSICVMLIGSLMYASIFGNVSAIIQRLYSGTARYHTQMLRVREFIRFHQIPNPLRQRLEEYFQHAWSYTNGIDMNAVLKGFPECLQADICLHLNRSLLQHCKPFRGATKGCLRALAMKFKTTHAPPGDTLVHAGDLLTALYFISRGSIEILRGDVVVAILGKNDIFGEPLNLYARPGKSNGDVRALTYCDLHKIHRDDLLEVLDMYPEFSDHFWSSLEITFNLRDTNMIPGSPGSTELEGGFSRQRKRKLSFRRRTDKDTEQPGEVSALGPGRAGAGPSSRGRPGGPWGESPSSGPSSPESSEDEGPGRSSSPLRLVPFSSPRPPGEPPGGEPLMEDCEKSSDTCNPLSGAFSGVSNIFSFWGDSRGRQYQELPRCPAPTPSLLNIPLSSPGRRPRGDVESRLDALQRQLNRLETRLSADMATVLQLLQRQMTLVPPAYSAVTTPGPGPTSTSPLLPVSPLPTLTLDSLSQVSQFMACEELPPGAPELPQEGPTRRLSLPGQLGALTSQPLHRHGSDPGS
UniProt O43603, whole entry: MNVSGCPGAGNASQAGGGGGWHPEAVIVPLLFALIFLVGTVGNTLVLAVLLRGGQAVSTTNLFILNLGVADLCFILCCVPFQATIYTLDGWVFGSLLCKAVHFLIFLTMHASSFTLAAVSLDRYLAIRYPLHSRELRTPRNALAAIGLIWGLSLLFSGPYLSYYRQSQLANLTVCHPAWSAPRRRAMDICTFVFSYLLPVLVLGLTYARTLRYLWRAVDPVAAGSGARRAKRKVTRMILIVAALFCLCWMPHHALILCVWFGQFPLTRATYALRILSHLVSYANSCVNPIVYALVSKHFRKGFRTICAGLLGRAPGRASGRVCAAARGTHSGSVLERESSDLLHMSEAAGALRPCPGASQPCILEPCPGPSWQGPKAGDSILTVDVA
UniProt P17787, 26-502 limits assumed: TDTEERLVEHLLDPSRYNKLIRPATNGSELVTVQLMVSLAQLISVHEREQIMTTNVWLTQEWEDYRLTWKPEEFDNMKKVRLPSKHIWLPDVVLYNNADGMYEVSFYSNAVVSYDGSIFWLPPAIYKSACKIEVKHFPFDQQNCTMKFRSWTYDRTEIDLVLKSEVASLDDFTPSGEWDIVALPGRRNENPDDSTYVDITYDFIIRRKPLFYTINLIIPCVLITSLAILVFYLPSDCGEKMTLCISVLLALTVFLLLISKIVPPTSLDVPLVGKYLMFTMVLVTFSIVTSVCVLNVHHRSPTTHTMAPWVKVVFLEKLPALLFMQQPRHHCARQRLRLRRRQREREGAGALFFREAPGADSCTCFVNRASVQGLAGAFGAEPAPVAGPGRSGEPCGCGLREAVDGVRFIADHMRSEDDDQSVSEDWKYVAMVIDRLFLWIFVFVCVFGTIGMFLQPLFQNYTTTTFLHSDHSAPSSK
UniProt P11712, whole entry: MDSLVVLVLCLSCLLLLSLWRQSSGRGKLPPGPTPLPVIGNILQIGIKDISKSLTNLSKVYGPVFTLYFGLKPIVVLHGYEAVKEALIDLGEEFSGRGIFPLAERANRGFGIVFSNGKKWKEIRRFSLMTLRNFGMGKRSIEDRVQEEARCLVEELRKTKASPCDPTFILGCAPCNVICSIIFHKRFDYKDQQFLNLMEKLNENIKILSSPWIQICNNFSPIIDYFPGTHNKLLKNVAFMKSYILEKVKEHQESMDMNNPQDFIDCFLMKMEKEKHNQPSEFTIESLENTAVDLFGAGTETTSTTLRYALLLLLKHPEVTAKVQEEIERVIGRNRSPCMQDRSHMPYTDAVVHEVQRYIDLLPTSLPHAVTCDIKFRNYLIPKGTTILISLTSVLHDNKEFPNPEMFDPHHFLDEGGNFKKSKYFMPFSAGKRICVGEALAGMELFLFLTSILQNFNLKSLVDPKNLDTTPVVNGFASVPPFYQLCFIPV
UniProt P11509, whole entry: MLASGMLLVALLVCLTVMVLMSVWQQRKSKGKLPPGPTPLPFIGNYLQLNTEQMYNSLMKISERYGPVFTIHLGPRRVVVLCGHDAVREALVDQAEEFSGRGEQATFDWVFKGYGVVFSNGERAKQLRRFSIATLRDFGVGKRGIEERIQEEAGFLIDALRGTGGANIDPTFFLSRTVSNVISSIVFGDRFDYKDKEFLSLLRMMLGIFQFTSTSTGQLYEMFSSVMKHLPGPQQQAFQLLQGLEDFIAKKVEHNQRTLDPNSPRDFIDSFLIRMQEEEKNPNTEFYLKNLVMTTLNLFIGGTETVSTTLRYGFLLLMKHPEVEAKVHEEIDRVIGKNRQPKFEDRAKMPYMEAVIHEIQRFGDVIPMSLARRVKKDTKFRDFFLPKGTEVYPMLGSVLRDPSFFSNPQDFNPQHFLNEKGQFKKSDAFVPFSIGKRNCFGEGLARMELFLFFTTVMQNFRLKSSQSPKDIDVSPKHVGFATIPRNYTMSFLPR
UniProt P10635, whole entry: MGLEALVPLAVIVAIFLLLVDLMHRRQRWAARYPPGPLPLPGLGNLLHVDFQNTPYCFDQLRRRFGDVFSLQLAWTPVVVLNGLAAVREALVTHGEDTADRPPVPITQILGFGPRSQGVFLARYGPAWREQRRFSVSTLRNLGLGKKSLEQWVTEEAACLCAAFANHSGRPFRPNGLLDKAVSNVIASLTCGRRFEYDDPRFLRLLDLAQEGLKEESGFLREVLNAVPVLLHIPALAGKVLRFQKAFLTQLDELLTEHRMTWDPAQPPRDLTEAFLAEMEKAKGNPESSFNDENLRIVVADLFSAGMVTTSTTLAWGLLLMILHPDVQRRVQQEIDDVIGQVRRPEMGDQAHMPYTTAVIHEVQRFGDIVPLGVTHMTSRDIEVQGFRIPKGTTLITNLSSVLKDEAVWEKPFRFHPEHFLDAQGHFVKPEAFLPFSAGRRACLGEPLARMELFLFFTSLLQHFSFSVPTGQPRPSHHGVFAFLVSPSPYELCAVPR
UniProt P33261, whole entry: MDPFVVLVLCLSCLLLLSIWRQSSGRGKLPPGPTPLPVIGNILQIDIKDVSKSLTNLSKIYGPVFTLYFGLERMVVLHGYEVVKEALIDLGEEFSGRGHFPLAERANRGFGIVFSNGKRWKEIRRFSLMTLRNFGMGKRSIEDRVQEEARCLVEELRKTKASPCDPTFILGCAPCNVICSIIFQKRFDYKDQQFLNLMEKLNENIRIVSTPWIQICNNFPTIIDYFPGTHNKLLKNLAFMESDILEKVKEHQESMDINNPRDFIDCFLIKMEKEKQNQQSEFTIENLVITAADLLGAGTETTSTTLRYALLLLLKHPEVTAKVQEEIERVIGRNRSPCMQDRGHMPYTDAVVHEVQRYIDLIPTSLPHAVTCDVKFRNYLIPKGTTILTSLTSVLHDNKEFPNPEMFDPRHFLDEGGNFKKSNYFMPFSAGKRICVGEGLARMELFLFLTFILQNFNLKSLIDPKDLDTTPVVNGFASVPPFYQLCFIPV

Assays:
human α9α10 nAChR = human α9α10 nAChR (Homo sapiens, UniProt Q9GZZ6+Q9UGM1); experiment: Two-electrode voltage clamp, Xenopus oocytes expressing the receptor
human α7 nAChR = human α7 nAChR (Homo sapiens, UniProt P36544); experiment: as above
rat α9α10 nAChR = rat α9α10 nAChR (Rattus norvegicus, UniProt P43144+Q9JLB5); experiment: as above; details: r α9α10
rat α7 nAChR = rat α7 nAChR (Rattus norvegicus, UniProt Q05941); experiment: as above
[1] = tested on: mice with oxaliplatin-induced peripheral neuropathy; experiment: Oxaliplatin-induced peripheral neuropathy in mice, cold-plate test
[2] = target: human ether-a-go-go-related gene (hERG) (Homo sapiens, UniProt Q12809); experiment: hERG channel assay (hERG-CHO, automated patch-clamp); details: tested up to 100 μM
[3] = tested on: ATP sensitive potassium channel; experiment: Radioligand binding assay (Eurofins Cerep); details: 10 μM; radioligand [^3H]glibenclamide; rat
Opioid δ2 (DOP) = Opioid δ2 (DOP) (Homo sapiens, UniProt P41143); experiment: Radioligand binding assay (Eurofins Cerep); details: 10 μM; radioligand [^3H]DADLE
[4] = target: Vasoactive intestinal peptide 2 (VPAC2) (Homo sapiens, UniProt P41587); experiment: Radioligand binding assay (Eurofins Cerep); details: 10 μM; radioligand [^125I]VIP
Galanin GAL2 = Galanin GAL2 (Homo sapiens, UniProt O43603); experiment: Radioligand binding assay (Eurofins Cerep); details: 10 μM; radioligand [^125I]galanin
Nicotinic neuronal α4β2 = Nicotinic neuronal α4β2 (Homo sapiens, UniProt P17787+P43681); experiment: Radioligand binding assay (Eurofins Cerep); details: 10 μM; radioligand [^3H]cytisine
CYP2C9 = CYP2C9 (Homo sapiens, UniProt P11712); experiment: Cytochrome P450 inhibition assay; details: 10 μM; substrate 7-methoxy-4-trifluoromethylcoumarin (MFC); average of 2 runs
CYP2A6 = CYP2A6 (Homo sapiens, UniProt P11509); experiment: Cytochrome P450 inhibition assay; details: 10 μM; substrate Coumarin; average of 2 runs
CYP2D6 = CYP2D6 (Homo sapiens, UniProt P10635); experiment: Cytochrome P450 inhibition assay; details: 10 μM; substrate 7-methoxy-4-trifluoromethylcoumarin (MFC); average of 2 runs
CYP1A2 = CYP1A2 (Homo sapiens, UniProt P05177); experiment: Cytochrome P450 inhibition assay; details: 10 μM; substrate 3-cyano-7ethoxycoumarin (CEC); average of 2 runs
CYP3A4 = CYP3A4 (Homo sapiens, UniProt P08684); experiment: Cytochrome P450 inhibition assay; details: 10 μM; substrate 7-benzyloxy-4-trifluoromethylcoumarin (BFC); average of 2 runs
CYP2C19 = CYP2C19 (Homo sapiens, UniProt P33261); experiment: Cytochrome P450 inhibition assay; details: 10 μM; substrate 3-cyano-7ethoxycoumarin (CEC); average of 2 runs
[5] = Serum-stability assay in 25% human serum (RP-HPLC); details: 37 C, 24 h, n=6, area under the HPLC peak

C[C@@H](O)[C@@H]1NC(=O)[C@H]2NC(=O)[C@@H](NC(=O)CN)CSSC[C@H](NC(=O)[C@H](CCCNC(=N)N)NC(=O)[C@@H]3CCCN3C(=O)[C@H](CC(=O)O)NC1=O)C(=O)N[C@@H](CCCNC(=N)N)C(=O)N[C@@H](Cc1ccc(O)c(I)c1)C(=O)N[C@@H](CCC(N)=O)C(=O)N[C@H](C(=O)N[C@H](CC(=O)N[C@@H](CCCNC(=N)N)C(=O)O)Cc1ccc(O)cc1)CSSC2(C)C
increased potency on the human α9α10 nAChR (human α9α10 nAChR; compared to the RgIA4 peptide): 30 ×
Hill slope values (human α9α10 nAChR; h α9α10): 0.73 ± 0.08
recovery after 5 min peptide washout (human α9α10 nAChR; saturating concentration 10 nM): 3%
increased potency over the native RgIA on the human α9α10 nAChR (human α9α10 nAChR; vs native RgIA): 9000 ×
Hill slope values (human α7 nAChR; h α7): 1.3 ± 0.1
lower potency compared to the human α9α10 nAChR (human α7 nAChR; human α7 vs human α9α10 nAChR): 2000 ×
Hill slope values (rat α9α10 nAChR): 2.7 ± 0.8
potency for rat α7 (rat α7 nAChR): significant decrease in potency
tolerance ([1]; constant dose of RgIA-5474): Tolerance was not observed
onset of the therapeutic effect ([1]; doses given over a period of three weeks): not apparent until after 15 doses
persistence of the therapeutic effect after cessation of treatment ([1]; mice tested weekly after day 22): persisted for four-weeks after cessation of treatment
IC50 [2]: > 100 µM
Inhibition [%] [3]: −25.8%
Inhibition [%] (Opioid δ2 (DOP)): 4.5%
Inhibition [%] [4]: 0.7%
Inhibition [%] (Galanin GAL2): −4.7%
Inhibition [%] (Nicotinic neuronal α4β2): −18.4%
Inhibition [%] (CYP2C9): 3.1%
Inhibition [%] (CYP2A6): 0.3%
Inhibition [%] (CYP2D6): −1.6%
Inhibition [%] (CYP1A2): −3.8%
Inhibition [%] (CYP3A4): −2.0%
Inhibition [%] (CYP2C19): −1.9%
globular form present [5]: 94%
ribbon form present [5]: 6%

This is a selection: effects in other tests are not listed, and their absence says nothing.
